PubChem BioAssay AID504761, Drosophila RNAi Screening Center | 2011
The screen tested about 22,000 reagents; below is an unselected part of those with a known target gene and a result. Of all reagents, 116 (0.52%) are marked active. 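Calls depend on retest data that are not deposited; infection was ranked per plate without normalising between plates; the unit of the infection score is not given.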 Raw values vary from plate to plate and are shown uncorrected. The numbers tell different reagents against one gene apart. A plus sign joins genes that one reagent is predicted to hit. Not given: the amount of reagent, the time to read-out.

Assay: 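Insect host genes that dengue virus relies on to spread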 (primary screen)
System: D.Mel-2 cells from Drosophila
Reagents: long dsRNA against Drosophila genes
Challenge: infection with dengue virus type 2; dose and infection time not stated
Measured: 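Per well on two replicate plates, imaging gave the percent of cells positive for viral envelope protein, ranked by infection, and a nuclear count of cells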
Scale: infection score: higher = more virus-infected cells; cell count: higher = more cells in the well
Call rule: 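Low infection ranks in the two replicates (chance level up to 0.065) followed by a retest with a 1.5-fold or larger significant decrease, p below 0.05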
Calls: active = confirmed: knock-down lowers infection; inactive = not picked or not confirmed

| infection score, replicate 1 | infection score, replicate 2 | cell count, replicate 1 | cell count, replicate 2 | outcome | target | reagent |
| --- | --- | --- | --- | --- | --- | --- |
| 9.72 | 8.09 | 6833 | 6623 | inactive | CG4372 | 1 |
| 3.44 | 1.47 | 6021 | 5913 | inactive | timeout | 1 |
| 4.04 | 3.58 | 6592 | 6822 | inactive | timeout | 2 |
| 7.72 | 7.24 | 6325 | 6591 | inactive | timeout | 3 |
| 1.82 | 7.83 | 6864 | 6474 | inactive | timeout | 4 |
| 7.82 | 22.4 | 6609 | 3799 | inactive | timeout | 5 |
| 4.11 | 3.72 | 6106 | 6363 | inactive | timeout | 6 |
| 10.1 | 9.19 | 4238 | 4191 | inactive | E(Pc) | 1 |
| 20.3 | 30.2 | 5043 | 2131 | inactive | E(Pc) | 2 |
| 6.22 | 10.7 | 4231 | 3575 | inactive | RpL27A | 1 |
| 8.57 | 5.03 | 1459 | 1172 | inactive | RpL27A | 2 |
| 18.6 | 2.34 | 5569 | 5461 | inactive | Acn | 1 |
| 10.5 | – | 4897 | 357 | inactive | Acn | 2 |
| 2.57 | 15.9 | 6219 | 3652 | inactive | Agpat2 | 1 |
| 13.4 | 5.1 | 5828 | 7040 | inactive | Agpat2 | 2 |
| 7.53 | 6.59 | 6551 | 6738 | inactive | CG12880 | 1 |
| 1.24 | 4.48 | 6445 | 6467 | inactive | spoon | 1 |
| 1.27 | 9.65 | 6374 | 6634 | inactive | spoon | 2 |
| 8.97 | 4.94 | 6920 | 6502 | inactive | CG7794 | 1 |
| 13.3 | 21 | 6473 | 6056 | inactive | CG14495 | 1 |
| 1.9 | 1.34 | 6253 | 6707 | inactive | Corin | 1 |
| 16.5 | 21.8 | 5724 | 5165 | inactive | Corin | 2 |
| 2.28 | 10.6 | 788 | 5352 | inactive | Or92a | 1 |
| 1.32 | 3.81 | 5988 | 6161 | inactive | Tsp42Eb + CG30160 | 1 |
| 22.9 | 22.4 | 5863 | 4922 | inactive | Tsp42Eb + CG30160 | 2 |
| 5.95 | 3.54 | 6086 | 5765 | inactive | Fas2 | 1 |
| 6.77 | 3.4 | 5774 | 6553 | inactive | Fas2 | 2 |
| 4.31 | 17.6 | 6443 | 6389 | inactive | Fas2 | 3 |
| 12.8 | 5.83 | 5619 | 6086 | inactive | CG32576 + UQCR-14 | 1 |
| 8.13 | 27.5 | 6830 | 5370 | inactive | CG1690 | 1 |
| 13.8 | 8.36 | 6632 | 6757 | inactive | PpD5 | 1 |
| 0.87 | 14.6 | 6747 | 6978 | inactive | PpD5 | 2 |
| 3.25 | 0.16 | 5605 | 5787 | active | CG14212 | 1 |
| 16.2 | 12.1 | 6268 | 5632 | inactive | CG14212 | 2 |
| 2.39 | 2.62 | 4681 | 2026 | inactive | CG33325 | 1 |
| 3.41 | 3.73 | 5725 | 5608 | inactive | CG11920 | 1 |
| 1.79 | 10.6 | 5418 | 6780 | inactive | CG31270 (retired record) | 1 |
| 21.5 | 20.9 | 4906 | 6485 | inactive | CG31270 (retired record) | 2 |
| 1.65 | 28.3 | 6260 | 4326 | inactive | CG6753 | 1 |
| 12.3 | 7.75 | 3269 | 3316 | inactive | CG6753 | 2 |
| 4.81 | 5.81 | 7128 | 7110 | inactive | CG7328 | 1 |
| 15.9 | 13 | 6320 | 6225 | inactive | CG17549 | 1 |
| 2.95 | 16 | 745 | 5355 | inactive | ninaE | 1 |
| 1.89 | 2.01 | 5601 | 6128 | inactive | ninaE | 2 |
| 8.36 | 1.49 | 969 | 6657 | inactive | CG2246 | 1 |
| 15.1 | 16.8 | 1963 | 5241 | inactive | Pmvk | 1 |
| 10.4 | 3.1 | 6555 | 6591 | inactive | Ttd14 | 1 |
| 10.2 | 6.04 | 6397 | 596 | inactive | Ttd14 | 2 |
| 1.5 | 1.95 | 5925 | 4722 | inactive | bnl | 1 |
| 0.65 | 1.27 | 6614 | 6914 | inactive | bnl | 2 |
| 2.19 | 3.46 | 731 | 5807 | inactive | bnl | 3 |
| 8.59 | 3.63 | 6637 | 6646 | inactive | CG32006 | 1 |
| 20.8 | 7.4 | 5931 | 5273 | inactive | CG32006 | 2 |
| 8.84 | 4.55 | 6315 | 5494 | inactive | ymp | 1 |
| 6.53 | 4.04 | 6049 | 817 | inactive | ymp | 2 |
| 10.9 | 2.65 | 5644 | 6780 | inactive | CG10839 | 1 |
| 3.01 | 2.62 | 6319 | 6591 | inactive | CG9171 | 1 |
| 7.3 | 2.37 | 6521 | 7061 | inactive | CG9171 | 2 |
| 2.38 | 24 | 6341 | 5413 | inactive | CG9171 | 3 |
